For assay [1], the target named is SARS-COV-2 Spike glycoprotein (SARS-CoV-2, UniProt P0DTC2 14-1208). Put plainly: estimated Kd for Spike (avidity), Table 10.
Assay [2] deals with SARS-COV-2 Spike glycoprotein receptor binding domain (RBD) (SARS-CoV-2, UniProt P0DTC2 319-541).

In US20230250134A1 (University of Washington, published 2023) one finds Kd data, which are given here for 1 molecule.

B1: LCB1_v1.3_Mucin (designed binder)
chain: DKENILQKIYEIMKTLEQLGHAEASMQVSDLIYEFMKQGDERLLEEAERLLEEVERGGAKAKAKAKAKAKAKAKAKAK
Turning to B1, the Kd was 100 pM in assay [1] and 200 pM in assay [2].
